From paper PMC12153317 (mBio, 2025)

B1: S8V1-157 Fab (BLI and size exclusion chromatography) (Fab, V domains shown)
VH: EVQLVQSGAEVKKPGASVKVSCKVSGYRLTALSMHWVRQAPGKGLEWMGGFDPEEDETIYAQNFQGRVTLTEDTSTDTVYMELSSLRSEDTGVYYCATLMGANPFDYWGQGTLIIVSG
VL: not shown
notes: source: 293F, transient transfection, purified (TALON resin, Superdex 200)
B2: S5V2-29 Fab (Fab, V domains shown)
VH: QVQLQESGPGLVKPSETLSLTCTVSGGSVSSNIYYWSWIRQTPGKGLEWLGYFYHSGSSNYNPSLKSRVTISGDMSKNQFSLKLKSVTAADTAIYYCARGGVENLMLVAVIQEMWYFDLWGRGTLVTVSG
VL: DIQMTQTPSSLSASVGDRVTITCRASQSIGASLNWYQQKPGEAPKFLIYAASNLQSGVPSRFSGSGSGTDFTLTISSLQPEDFATYYCQQQGTFGQGTKLEIK
notes: as for B1

Target: H3 A/Aichi/02/1968(X31) monomeric HA head, His6-tagged (Influenza A virus …, UniProt P03437, strain)
Assay: BLI

| Binder | binding result |
| --- | --- |
| B1 | binds |
| B2 | binds |
